ΔTm data for one compound are collected here from ChEMBL document CHEMBL4390646, “A fragment-based approach towards the discovery of N-substituted tropinones as inhibitors of Mycobacterium tuberculosis transcriptional regulator EthR2” (Eur J Med Chem, 2019).

For this test, the system named is Mycobacterium tuberculosis. Put plainly: Binding affinity to recombinant Mycobacterium tuberculosis EthR2 assessed as change in melting temperature at 20 uM by SYPRO Orange dye based fluorescence thermal shift assay.

As for `O=C1CCN(CCc2ccc(Cl)cc2)CC1`, the ΔTm is 0.3 °C.

The term ΔTm denotes the shift of the melting midpoint relative to a reference.
